Experimental data published in patent US10139406B2, “Alkyl quinolones as biomarkers of pseudomonas aeruginosa infection and uses thereof” (priority 2013, dated 2018).

Assay: LLOQ determination by serial dilutions of AQ mix spiked into blank urine/plasma (LC-MS/MS)
Design: species or system human
Conditions: for Calculated LLOQ in plasma: spiked blank plasma; for Calculated LLOQ in urine: spiked blank urine

Structure (SMILES) | Calculated LLOQ in plasma [pmol/L] | Calculated LLOQ in urine [pmol/L]
CCCCCCCCCc1cc(O)c2ccccc2n1 [NHQ, 2-nonyl-4-hydroxyquinoline] | 10 | 10
CCCCCCCc1cc(O)c2ccccc2[n+]1[O-] [HQNO, 2-heptyl-4-hydroxyquinoline N-oxide] | 30 | 30
CCCCCCCc1[nH]c2ccccc2c(=O)c1O [C7-PQS, 2-heptyl-3-hydroxy-4(1H)-quinolone] | 100 | 50
CCCCCCCCCc1cc(O)c2ccccc2[n+]1[O-] [NQNO, 2-nonyl-4-hydroxyquinoline N-oxide] | 40 | 50
